{"source": "patent US7419966B2", "about": "“[5-carboxamido or 5-fluoro]-[2′,3′-unsaturated or 3′-modified]-pyrimidine nucleosides” (Emory University, priority 1995, dated 2008)", "system": "hepatitis B virus in transfected HepG-2 (2.2.15) cells", "assay": "Anti-HBV activity in 2.2.15 cell cultures (HBV virion DNA and replicative intermediates)", "assay_type": "cell-based", "protocol": "The ability of the active compounds to inhibit the growth of virus in 2.2.15 cell cultures (HepG2 cells transformed with hepatitis virion) can be evaluated as described in detail below.\nA summary and description of the assay for antiviral effects in this culture system and the analysis of HBV DNA has been described (Korba and Milman, 1991, Antiviral Res., 15:217). The antiviral evaluations were performed on two separate passages of cells. All wells, in all plates, were seeded at the same density and at the same time.\nDue to the inherent variations in the levels of both intracellular and extracellular HBV DNA, only depressions greater than 3.5-fold (for HBV virion DNA) or 3.0-fold (for HBV DNA replication intermediates) from the average levels for these HBV DNA forms in untreated cells are considered to be statistically significant [P<0.05]. The levels of integrated HBV DNA in each cellular DNA preparation (which remain constant on a per cell basis in these experiments) were used to calculate the levels of intracellular HBV DNA forms, thereby ensuring that equal amounts of cellular DNA were compared between separate samples.\nTypical values for extracellular HBV virion DNA in untreated cells ranged from 50 to 150 pg/ml culture medium (average of approximately 76 pg/ml). Intracellular HBV DNA replication intermediates in untreated cells ranged from 50 to 100 pg/μg cell DNA (average approximately 74 pg/μg cell DNA). In general, depressions in the levels of intracellular HBV DNA due to treatment with antiviral compounds are less pronounced, and occur more slowly, than depressions in the levels of HBV virion DNA (Korba and Milman, 1991, Antiviral Res., 15:217)."}
{"molecule": "Nc1nc(=O)n([C@@H]2C=C[C@H](CO)O2)cc1F", "note": "[L-F-D4C, β-L-2′,3′-didehydro-2′,3′-dideoxy-5-fluoro-cytidine]", "values": [{"measurement": "Selectivity Index IC50/EC90 RI", "setting": "Table 4", "value": ">4"}, {"measurement": "Selectivity Index IC50/EC90 Virion", "setting": "Table 4", "value": ">7.3"}]}
{"molecule": "Nc1ccn([C@@H]2C=C[C@H](CO)O2)c(=O)n1", "note": "[L-D4C, β-L-2′,3′-didehydro-2′,3′-dideoxy-cytidine]", "values": [{"measurement": "Selectivity Index IC50/EC90 RI", "setting": "Table 4", "value": 454}, {"measurement": "Selectivity Index IC50/EC90 Virion", "setting": "Table 4", "value": 1149}]}
{"molecule": "NC(=O)c1cn([C@@H]2CS[C@H](CO)O2)c(=O)nc1N", "note": "[C Carboxamide (−)-β-L, 5-carboxylic acid amide-2′,3′-dideoxy-3′-thiacytidine]", "values": [{"measurement": "Selectivity Index IC50/EC90 RI", "setting": "Table 2", "value": 177}, {"measurement": "Selectivity Index IC50/EC90 Virion", "setting": "Table 2", "value": 1165}]}
{"molecule": "5-carboxylic acid amide-2′,3′-dideoxy-3′-thiacytidine [C Carboxamide (+)-β-D]", "values": [{"measurement": "Selectivity Index IC50/EC90 RI", "setting": "Table 2", "value": 296}, {"measurement": "Selectivity Index IC50/EC90 Virion", "setting": "Table 2", "value": 1249}]}
